Test results: patent US20260209317A1 (US Dept. of Health and Human Services, published 2026)

How the values were obtained:
[1] = target: T1, SARS-CoV-2 beta (B.1.351) RBD protein (SARS-CoV-2); test: ELISA, plate coated with Beta RBD
T1 construct: domain: RBD

[2] = target: SARS-CoV-2 beta (B.1.351) S-2P spike protein (SARS-CoV-2); test: ELISA, plate coated with Beta S-2P
[3] = target: T2, SARS-CoV-2 delta (B.1.617.2) RBD protein (SARS-CoV-2); test: ELISA, plate coated with Delta RBD
T2 construct: domain: RBD

[4] = target: SARS-CoV-2 delta (B.1.617.2) S-2P spike protein (SARS-CoV-2); test: ELISA, plate coated with Delta S-2P

B1: B2-269.1 (antibody, V domains shown)
VH: EVQLVESGGGLVQPGGSLRLSCAASGITVSSNYMSWVRQPPGKGLDWVSLIFSGGSTYYADSVKGRFTISRDNSKNTLYLQMNSLRAEDTAVYYCARVGVAVAGTDYDIWGQGTMVTVSS
VL: DIQMTQSPSSLSASVGDRVTITCQASQDINKYLNWYQQKPGKAPKLLIYDASNLETGVPSRFSGSGSGTDFTFTISSLQPEDIATYYCLHYENLPLSFGGGTKVEIK
- EC50 (read off the curve) [1]: ~2 ng/mL
- EC50 (read off the curve) [2]: ~2 ng/mL
- EC50 (read off the curve) [3]: ~7 ng/mL
- EC50 (read off the curve) [4]: ~4 ng/mL
